Experimental data from publication PMC4624681 (2015).

Target: Zaire GP (1–320) with a His tag (Ebolavirus, Zaire strain, UniProt Q05320 33-320)
Test: SPR

| Binder | Kd |
| --- | --- |
| hTIM-1 Ig V R106A (protein) VKVGGEAGPSVTLPCHYSGAVTSMCWNRGSCSLFTCQNGIVWTNGTHVTYRKDTRYKLLGDLSRRDVSLTIENTAVSDSGVYCCAVEHRGWFNDMKITVSLEIVPP | 392 µM |
| hTIM-1 Ig V D115A (protein) VKVGGEAGPSVTLPCHYSGAVTSMCWNRGSCSLFTCQNGIVWTNGTHVTYRKDTRYKLLGDLSRRDVSLTIENTAVSDSGVYCCRVEHRGWFNAMKITVSLEIVPP | 21.3 µM |
| hTIM-1 Ig V R86A (protein) VKVGGEAGPSVTLPCHYSGAVTSMCWNRGSCSLFTCQNGIVWTNGTHVTYRKDTRYKLLGDLSRADVSLTIENTAVSDSGVYCCRVEHRGWFNDMKITVSLEIVPP | 51.1 µM |
| hTIM-1 Ig V K117A (protein) VKVGGEAGPSVTLPCHYSGAVTSMCWNRGSCSLFTCQNGIVWTNGTHVTYRKDTRYKLLGDLSRRDVSLTIENTAVSDSGVYCCRVEHRGWFNDMAITVSLEIVPP | 196 µM |
| hTIM-1 Ig V N114A (protein) VKVGGEAGPSVTLPCHYSGAVTSMCWNRGSCSLFTCQNGIVWTNGTHVTYRKDTRYKLLGDLSRRDVSLTIENTAVSDSGVYCCRVEHRGWFADMKITVSLEIVPP | 45.9 µM |
| hTIM-1 Ig V R110A (protein) VKVGGEAGPSVTLPCHYSGAVTSMCWNRGSCSLFTCQNGIVWTNGTHVTYRKDTRYKLLGDLSRRDVSLTIENTAVSDSGVYCCRVEHAGWFNDMKITVSLEIVPP | 49.5 µM |
